Pooled drug test results. Numbers come from NIAID ChemDB, via PubChem.

All rows: whole-cell or culture tests; species: Hepatitis B virus; endpoint: EC50

Neighbouring rows are from separate reports. Two numbers with a dash give a range or band. ECn: concentration that inhibits the pathogen or its effect by n%. An empty or dashed field is not shown.

compound,read by,strain,cells,value
Cc1cc(NC(=O)c2c3c(cn2C)S(=O)(=O)NC2CN(C(=O)C(=O)NC4CC4)CC2(C)CO3)ccc1F,PCR,,HepAD38,<0.5 µM
COc1ccc(CN2CCn3c(c4n(c3=O)CCN(C(=O)c3ccc(Br)c(Cl)c3)C4)C2=O)cc1,PCR,,HepG2.2.15,>5 µM
Cc1c(C(=O)C(=O)NC2(c3cnc[nH]3)COC2)c(C)n(C)c1C(=O)Nc1ccc(F)c(C#N)c1,PCR,,HepG2.2.15,0.001–0.0099 µM
Cn1cc(S(=O)(=O)NC2CCN(C(=O)C(=O)NC3COC3)CC2(F)F)c(F)c1C(=O)Nc1ccc(F)c(F)c1,PCR,,HepAD38 cells,<0.1 µM
CCCCNc1cc(OC)c2cc(C(=O)OC)[nH]c2c1,,,,9.54 µg/mL
C=CC1(NC(=O)C(=O)c2c(Cl)c(C(=O)Nc3ccc(F)c(C#N)c3)n(C)c2C)CC(F)(F)C1,PCR,,HepG2.2.15,<0.001 µM
CC(C)(C)Oc1ccc(-n2c(C(=O)NCc3ccccc3)c3n(c2=O)CCN(C(=O)c2ccc(Br)c(Cl)c2)C3)cc1,PCR,,HepG2.117,0.1–0.5 µM
Cc1cc(NC(=O)c2c3c(cn2C)S(=O)(=O)N[C@H]2CN(C(=O)C(=O)NCC4CC4)C[C@H]2CS3)ccc1F,PCR,,HepAD38,<0.5 µM
OC[C@H]1OC2OC[C@H](c3ccc(O)c(O)c3)OC2[C@@H](O[C@@H]2OC[C@](O)(CO)[C@H]2O)[C@@H]1O,ELISA / antigen,,HepG2.2.15,500 µM
O=C(NC1CC2(C1)CC(c1nc3cc(Cl)ccc3o1)C2)c1cc(Br)co1,luminescence,,Primary human hepatocytes,8.94 µM
Cn1cc(S(=O)(=O)NC2CCN(C(=O)C(=O)NC3(C)CC3)CC2(F)F)c(Cl)c1C(=O)Nc1cc(F)c(F)c(F)c1,PCR,,HepAD38 cells,<0.1 µM
Cc1cc(NC(=O)c2c3c(cn2C)S(=O)(=O)N[C@H]2CN(C(=O)C(=O)N[C@H](C)C(F)(F)F)C[C@H]2CO3)ccc1F,PCR,Genotype A,HepG2,0.00214 µM
COc1ccc(-n2c(C(=O)NCc3ccccc3C#N)c3n(c2=O)CCN(C(=O)c2ccc(Br)c(Cl)c2)C3)cc1,PCR,,HepG2.117,0.1–0.5 µM
C#CC(C)(C)NC(=O)C(=O)c1c(C)c(C(=O)Nc2ccc(F)c(F)c2)n(C)c1C,PCR,,HepG2.2.15,0.001–0.0099 µM
COc1cc(N)cc2[nH]c(N)cc(=O)c12,,,,0.1 µg/mL
CC(C)[C@@H](C)/C=C/[C@@H](C)[C@H]1CCC2C3=C[C@@H](O)[C@@]4(O)C[C@@H](O)CC[C@]4(C)C3CC[C@@]21C,ELISA / antigen,,HepG2.2.15,35 µM
C[C@@H]1CO[C@@]2(C[C@@H]1OC(=O)c1ccc(O)cc1)O[C@]1(O)C[C@@H](C(=O)O[C@@H]3C[C@H](O)[C@@H](O)[C@H](O)[C@H]3OC3O[C@H](CO)[C@@H](O)[C@H](O)[C@H]3OC3O[C@H](CO)[C@@H](O)[C@H](O)[C@H]3O)C[C@H](O)[C@]1(O)[C@H]2O,ELISA / antigen,,HepG2 2.2.15,25.9 µM
COc1ccc([C@H](C)NC(=O)c2c3n(c(=O)n2-c2ccc(-n4cccn4)cc2)CCN(C(=O)c2ccc(Br)c(Cl)c2)C3)cc1,PCR,,HepG2.117,0.1–0.5 µM
CO[C@@]12C[C@@H](C(=O)O[C@@H]3C[C@H](O)[C@@H](O)[C@H](O)[C@H]3OC3O[C@H](CO)[C@@H](O)[C@H](O)[C@H]3O)C[C@H](O)[C@]1(O)[C@@H](O)[C@]1(C[C@H](OC(=O)c3ccc(O)cc3)[C@H](C)CO1)O2,ELISA / antigen,,HepG2 2.2.15,25.9 µM
Nc1ccn([C@@H]2CS[C@H](CO)O2)c(=O)n1,ELISA / antigen,,HepG2.2.15,870 µM
Nc1ncnc2c1ccn2[C@@H]1C=C[C@H](CO)C1,hybridisation,,HepG2 2.2.15,2 µM
Cc1cc(NC(=O)c2c3c(cn2C)S(=O)(=O)N[C@H]2CN(C(=O)C(=O)NC(C)(C)C)C[C@H]2CO3)ccc1F,PCR,,HepAD38,<0.5 µM
CCNC(=O)C(=O)N1CC[C@@H](NS(=O)(=O)c2cn(C)c(C(=O)Nc3ccc(F)c(F)c3)c2F)[C@@H](F)C1,PCR,,HepAD38 cells,<0.1 µM
O=C(NCc1ccc(-n2ccnc2)cc1)c1c2n(c(=O)n1-c1ccc(OCC(F)(F)F)cc1)CCN(C(=O)c1ccc(Br)c(Cl)c1)C2,PCR,,HepG2.117,0.1–0.5 µM
Cc1cc(NC(=O)c2c3c(cn2C)S(=O)(=O)N[C@H]2CN(C(=O)C(N)=O)C[C@H]2CS3)ccc1F,PCR,,HepAD38,<0.5 µM
COC(=O)[C@H]1C[C@H](O)[C@@]2(O)[C@@H](C1)O[C@@]1(C[C@H](OC(=O)c3ccc(O)cc3)[C@H](C)CO1)[C@@H]2O,ELISA / antigen,,HepG2 2.2.15,28.8 µM
COc1cc(N)cc2[nH]c(C(C)=O)cc12,,,,0.98 µg/mL
COC(=O)C(Cc1c[nH]c2ccccc12)NP(=O)(O)OCC1C/C1=C/n1cnc2c(N)ncnc21,,,2.2.15,0.49 µM
NC(=O)c1cc(C(=O)NC2CC3(C2)CC(c2nc4cc(Cl)ccc4s2)C3)ccn1,luminescence,,Primary human hepatocytes,4.06 µM
COc1ccc([C@@H](C)NC(=O)c2c3n(c(=O)n2-c2ccc(OC4CC4)cc2)C[C@@H](C)N(C(=O)c2ccc(Br)c(Cl)c2)C3)cc1,PCR,,HepG2.117,0.5–5 µM
CC(=O)N[C@H]1C(O[C@@H]2[C@@H](O)[C@H](O)[C@@H](O)C[C@H]2OC(=O)[C@H]2C[C@H](O)[C@]3(O)[C@@H](O)[C@]4(C[C@H](OC(=O)c5ccc(O)cc5)[C@H](C)CO4)O[C@]3(O)C2)O[C@H](CO)[C@@H](O)[C@@H]1O,ELISA / antigen,,HepG2 2.2.15,24 µM
COC(=O)C(C)(C)NP(=O)(OC[C@H]1C=C[C@@H](n2ccc3c(N)ncnc32)C1)Oc1ccccc1,hybridisation,,HepG2 2.2.15,0.05 µM
C[C@H]1OC(=O)[C@@H](O)CC2[C@]3(C)CC[C@@]4(CC(=O)O)C5CC(C)(C)CC[C@]5(C)CC[C@]4(C)C3CC[C@@]21C,ELISA / antigen,,HepG2.2.15,26.2 µM
C#CC(CC)(CC)NC(=O)C(=O)c1c(C)c(C(=O)Nc2ccc(F)c(F)c2)n(C)c1C,PCR,,HepG2.2.15,0.001–0.0099 µM
C=C(C)[C@H](CC)CC[C@@H](C)C1CCC2C3CC=C4C[C@@H](OC5OC(CO)C(O)C(O)C5O)CC[C@]4(C)C3CC[C@@]21C,ELISA / antigen,,HepG2.2.15,51 µM
COc1cc(N)cc2nc(N)cc(OC)c12,,,,0.19 µg/mL
Cc1cc(NC(=O)c2c3c(cn2C)S(=O)(=O)N[C@H]2CN(C(=O)C(=O)N[C@H](C)C(F)(F)F)C[C@H]2CS3)ccc1F,PCR,,HepAD38,<0.5 µM
Cc1c(C(=O)C(=O)NC(C)(C)c2cncnc2)c(C)n(C)c1C(=O)Nc1ccc(F)c(C(F)(F)F)c1,PCR,,HepG2.2.15,0.001–0.0099 µM
CNS(=O)(=O)c1ccc(C(=O)NC2CC3(C2)CC(c2nc4cc(Cl)ccc4o2)C3)o1,luminescence,,Primary human hepatocytes,1.036 µM
COC(=O)[C@H](C)NP(=O)(OC[C@H]1C=C[C@@H](n2ccc3c(N)ncnc32)C1)Oc1ccccc1,hybridisation,,HepG2 2.2.15,0.09 µM
O=C(NCc1ccccc1)c1c2n(c(=O)n1-c1ccc(OC(F)F)cc1)CCN(C(=O)c1ccc(Cl)c(Cl)c1)C2,PCR,,HepG2.117,0.5–5 µM
COc1cc(N)cc2[nH]cc(C(=O)O)c12,,,,0.64 µg/mL
C=CC1(NC(=O)C(=O)c2c(C)c(C(=O)Nc3ccc(F)c(C#N)c3)n(C)c2C)CC(F)(F)C1,PCR,,HepG2.2.15,0.001–0.0099 µM
C=C(C)[C@H](CC)CC[C@@H](C)[C@H]1CCC2C3C(CC[C@@]21C)[C@@]1(C)CC[C@H](O)CC1=C[C@H]3O,ELISA / antigen,,HepG2.2.15,92.5 µM
COC(=O)c1cc(C(F)(F)F)c2c(OC)cc(N)cc2n1,,,,0.74 µg/mL
C=C1[C@H](CO)[C@@H](O)C[C@@H]1n1cnc2c(=O)[nH]c(N)nc21,fluorescence,Genotype D,HepG2-NTCP,0.00125 µM
CNS(=O)(=O)N1CC[C@@H](NS(=O)(=O)c2cn(C)c(C(=O)Nc3ccc(F)c(F)c3)c2F)C1,PCR,,HepAD38 cells,<0.1 µM
C[C@H](c1ccccc1)N1C[C@H](O)Cn2c(c3n(c2=O)CCN(C(=O)c2ccc(Br)c(Cl)c2)C3)C1=O,PCR,,HepG2.117,0.1–0.5 µM
CC[C@]12CCC(C)(C)CC1[C@]1(CC(=O)O)CC[C@@]3(C)C4C[C@H](O)C(=O)O[C@H](C)[C@@]4(C)CCC3[C@@]1(C)CC2,ELISA / antigen,,HepG2.2.15,33.7 µM

For reference, 4 entries again:

compound,read by,strain,cells,value
Cc1cc(NC(=O)c2c3c(cn2C)S(=O)(=O)N[C@H]2CN(C(=O)C(=O)N[C@H](C)C(F)(F)F)C[C@H]2CO3)ccc1F,PCR,Genotype A,HepG2,0.00214 µM
CCCCNc1cc(OC)c2cc(C(=O)OC)[nH]c2c1,,,,9.54 µg/mL
COc1cc(N)cc2[nH]c(N)cc(=O)c12,,,,0.1 µg/mL
O=C(NC1CC2(C1)CC(c1nc3cc(Cl)ccc3o1)C2)c1cc(Br)co1,luminescence,,Primary human hepatocytes,8.94 µM